From article PMC8400257, “2-Phenoxy-3-Trichloromethylquinoxalines Are Antiplasmodial Derivatives with Activity against the Apicoplast of Plasmodium falciparum” (Pharmaceuticals, 2021)

Test system: K1 chloroquine and pyrimethamine-resistant P. falciparum strain
Assay: In vitro antiplasmodial evaluation (SYBR Green I)
Format: cell-based, Plasmodium falciparum
Conditions: SI = CC50 HepG2/EC50 PfK1
Procedure: For all molecules, the selectivity index was calculated as following SI = CC50/EC50.
It was maintained in continuous culture, as described previously by Trager and Jensen. Cultures were maintained in fresh A+ human erythrocytes at 2.5% hematocrit in complete medium (RPMI 1640 with 25 mM HEPES, 25 mM NaHCO3, 10% of A+ human serum) at 37 °C under reduced O2 atmosphere (gas mixture 10% O2, 5% CO2, and 85% N2). Parasitemia was maintained daily between 1 and 3%. The P. falciparum drug susceptibility test was carried out by comparing quantities of DNA in treated and control cultures of parasite in human erythrocytes according to an SYBR Green I fluorescence-based method using a 96-well fluorescence plate reader. Compounds, previously dissolved in DMSO (final concentration less than 0.5% v/v), were incubated in a total assay volume of 200 μL (RPMI, 2% hematocrit and 0.4% parasitemia) for 72 h in a humidified atmosphere (10% O2 and 5% CO2) at 37 °C, in 96-well flat bottom plates. Duplicate assays were performed for each sample. After incubation, plates were frozen at […] for 24 h. Then, the frozen plates were thawed for 1 h at 37 °C. […] Plates were incubated for 15 min at 37 °C and then read on a TECAN Infinite F-200 spectrophotometer with excitation and emission wavelengths at 485 and 535 nm, respectively.

Substance	SI (selectivity index)
2-(Naphthalen-1-yloxy)-3-trichloromethylquinoxaline [3r]	>78.1
2-(Naphthalen-2-yloxy)-3-trichloromethylquinoxaline [3q]	88.5
